According to PMC12859517, “Oligomerization is required for channel formation of MctB and for copper resistance of Mycobacterium tuberculosis” (The Journal of Biological Chemistry, 2025):

Target: the molecule itself
Assay: crystal structure

B1: _(His6-ΔN26)MctBtb: recombinant MctB (Rv1698) of M. tuberculosis lacking its 26 N-terminal amino acids, with an N-terminal hexa-histidine tag (domain or fragment)
chain: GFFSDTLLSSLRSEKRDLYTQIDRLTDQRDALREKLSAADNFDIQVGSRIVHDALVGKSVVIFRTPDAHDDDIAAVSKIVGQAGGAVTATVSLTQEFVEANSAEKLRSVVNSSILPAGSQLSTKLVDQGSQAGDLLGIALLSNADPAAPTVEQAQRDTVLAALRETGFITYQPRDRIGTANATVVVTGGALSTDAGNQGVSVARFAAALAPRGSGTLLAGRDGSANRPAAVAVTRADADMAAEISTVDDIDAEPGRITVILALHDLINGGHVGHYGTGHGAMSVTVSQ
notes: not shown: His6, N-terminal, kept
Question: B1 was tested. Which “stoichiometry N” value did it give?
Answer: Its value is 2.
